Share of PSTVd loop 6 variants by leaf site

The pool varies loop 6 of the PSTVd intermediate strain in the pattern UNNNCGNNNG; wild type is UGACCGCGAG (upper and lower strand joined, each 5' to 3', the first 5 letters being the upper strand, closing pairs included).

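Three N. benthamiana plants were inoculated with the whole mutant pool. Samples came from the inoculated region at 5 days, the leaf margin at 10 and upper systemic leaves at 12.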

Values are reads per thousand in the sample; higher means more abundant, 0 means not found. Each site shows the three plants. "Pool" is the share in the plasmid pool used as inoculum, on the same scale. The inoculated region was read from the minus strand, the other sites from the plus strand. For reference, wild type rose from 20.7 per thousand in the pool to 195, 198, 203 (inoculated region), 629, 591, 734 (leaf margin) and 942, 870, 868 (systemic leaves). Samples held 36,220 to 57,551 reads, so the smallest values rest on one or two reads. The authors trace changes outside the varied positions to PCR and sequencing errors or to mutation in the plant; presence does not show that a variant is infectious alone.

sequence	pool	inoculated region	leaf margin	systemic leaves
UGCACGAAAG	0.144	0.104 0.0898 0.0738	0 0 0	0 0 0
UGCACGAACG	0.275	0.0174 0.0898 0.0922	0 0 0	0 0 0
UGCACGAAGG	0.144	0.0695 0.0719 0.0369	0 0 0.0232	0 0 0
UGCACGAAUG	0.366	0.156 0.0898 0.0738	0.0276 0 0	0 0 0
UGCACGACAG	0.183	0.0869 0.0539 0.0922	0 0 0.0232	0 0 0
UGCACGACCG	0.196	0.104 0.0359 0.0922	0 0 0.0232	0 0 0
UGCACGACGG	0.196	0.174 0.0898 0.0922	0.0276 0 0	0 0 0
UGCACGACUG	0.327	0.0869 0.0898 0.0738	0 0 0	0 0 0
UGCACGAGAG	0.235	0.139 0.0898 0.111	0.0276 0.0252 0	0 0 0
UGCACGAGCG	0.222	0.139 0.0180 0.111	0.0276 0 0	0 0 0
UGCACGAGGG	0.157	0.0869 0.126 0.0738	0 0 0.0232	0 0 0
UGCACGAGUG	0.222	0.0174 0.0539 0.0738	0 0 0	0 0 0
UGCACGAUAG	0.314	0.156 0.108 0.166	0.0276 0 0.186	0 0 0
UGCACGAUCG	0.157	0.0521 0.0359 0.148	0 0 0	0 0 0
UGCACGAUGG	0.314	0.104 0.144 0.0369	0 0 0	0 0 0
UGCACGAUUG	0.327	0.0174 0.108 0.0369	0.0276 0 0	0 0 0
UGCACGCAAG	0.157	0.660 0.521 0.572	0 0.0757 0.0696	0 0 0
UGCACGCACG	0.235	0.156 0.0359 0.0553	0 0 0	0 0 0
UGCACGCAGG	0.196	0.139 0.0898 0.0553	0 0 0	0 0 0
UGCACGCAUG	0.209	0.122 0.0539 0.0922	0 0 0.0464	0 0 0
UGCACGCCAG	0.261	0.139 0.108 0.0738	0.0276 0 0	0.0359 0.0404 0.0205
UGCACGCCCG	0.209	0.0869 0.0898 0.0738	0 0 0.0232	0 0 0
UGCACGCCGG	0.301	0.139 0.0719 0.0738	0.0276 0 0	0 0 0
UGCACGCCUG	0.248	0.174 0.144 0.0738	0 0.0252 0	0 0 0
UGCACGCGAG	0.261	0.295 0.0898 0.221	0.276 0.151 0.0232	0.0180 0 0.0820
UGCACGCGCG	0.301	0.0869 0.0719 0.0369	0.0276 0 0	0 0 0
UGCACGCGGG	0.196	0.0869 0.0359 0.0553	0.0276 0 0	0 0 0
UGCACGCGUG	0.170	0.156 0.0359 0.0369	0 0 0	0 0 0
UGCACGCUAG	0.105	0.0869 0.0719 0.0922	0 0 0	0.0180 0.0606 0.0410
UGCACGCUCG	0.458	0.139 0.108 0.184	0 0 0	0 0 0
UGCACGCUGG	0.131	0.104 0.0359 0.0553	0 0 0.0232	0 0 0
UGCACGCUUG	0.327	0.104 0.0180 0.0738	0 0 0	0 0 0
UGCACGGAAG	0.118	0.556 0.772 0.424	0 0.101 0.0464	0 0 0
UGCACGGACG	0.209	0.104 0.108 0.0553	0 0 0	0 0 0
UGCACGGAGG	0.235	0.0869 0.0359 0.0369	0 0 0	0 0 0
UGCACGGAGU	0.0131	0.0174 0 0	0 0 0	0 0 0
UGCACGGAUG	0.222	0.0521 0.108 0.0738	0 0 0	0 0 0.0205
UGCACGGCAG	0.131	0.765 0.754 0.664	0.110 0.0504 0.0928	0.0180 0.0404 0.0615
UGCACGGCCG	0.209	0.0348 0.108 0.0553	0 0 0.0232	0 0 0
UGCACGGCGG	0.235	0.156 0.144 0.0553	0.0276 0 0	0 0 0
UGCACGGCUG	0.170	0.139 0.0539 0.0922	0 0 0	0 0 0
UGCACGGGAG	0.314	0.904 0.916 0.516	0.110 0.0252 0.0928	0 0 0
UGCACGGGCG	0.196	0.156 0.0539 0.0369	0 0 0	0 0 0
UGCACGGGGG	0.209	0.174 0.0719 0.0922	0 0 0	0 0 0
UGCACGGGUG	0.235	0.156 0.108 0.0738	0 0 0.0232	0 0 0
UGCACGGUAG	0.235	0.765 0.575 0.461	0.0828 0.252 0.0464	0.0180 0.0606 0.0205
UGCACGGUCG	0.288	0.139 0.108 0.111	0 0 0	0 0 0
UGCACGGUGG	0.392	0.191 0.0539 0.0369	0 0.0252 0	0 0 0
UGCACGGUUG	0.275	0.139 0.108 0.0553	0 0 0.0232	0 0 0
UGCACGUAAG	0.105	0.174 0.0719 0.0922	0.0276 0 0	0 0 0
UGCACGUACG	0.196	0.209 0.0898 0.0738	0 0 0	0 0 0
UGCACGUAGG	0.275	0.139 0.108 0.0922	0 0 0.0232	0 0 0
UGCACGUAUG	0.261	0.174 0.0719 0.0922	0.248 0 0	0 0 0
UGCACGUCAG	0.261	0.156 0.0898 0.0553	0 0 0	0 0 0
UGCACGUCCG	0.314	0.0348 0.0359 0.0922	0 0 0	0 0 0
UGCACGUCGG	0.235	0.104 0.0180 0.0369	0.0276 0 0	0 0 0

Extract of 7 entries:

* UGCACGAGGG (pool 0.157) = inoculated region 0.0869 0.126 0.0738; leaf margin 0 0 0.0232; systemic leaves 0 0 0
* UGCACGACAG (pool 0.183) = inoculated region 0.0869 0.0539 0.0922; leaf margin 0 0 0.0232; systemic leaves 0 0 0
* UGCACGCGGG (pool 0.196) = inoculated region 0.0869 0.0359 0.0553; leaf margin 0.0276 0 0; systemic leaves 0 0 0
* UGCACGGUGG (pool 0.392) = inoculated region 0.191 0.0539 0.0369; leaf margin 0 0.0252 0; systemic leaves 0 0 0
* UGCACGGAUG (pool 0.222) = inoculated region 0.0521 0.108 0.0738; leaf margin 0 0 0; systemic leaves 0 0 0.0205
* UGCACGCAUG (pool 0.209) = inoculated region 0.122 0.0539 0.0922; leaf margin 0 0 0.0464; systemic leaves 0 0 0
* UGCACGGAAG (pool 0.118) = inoculated region 0.556 0.772 0.424; leaf margin 0 0.101 0.0464; systemic leaves 0 0 0

Values reported by Wu et al. 2024 (doi:10.1371/journal.ppat.1012142).